Test results reported in patent publication US20090325909A1, “Suppression of HIV replication and prevention and treatment of HIV” (The Johns Hopkins University, priority 2003, published 2009).
Structures can show the parent of a compound that is named as a salt.

System: MCP-1
Assay: MCP-1 expression in CSF, plasma and brain homogenates by ELISA
Assay type: in vivo
Details: all minocycline-treated macaques

Compound: CN(C)c1ccc(O)c2c1C[C@H]1C[C@H]3[C@H](N(C)C)C(O)=C(C(N)=O)C(=O)[C@@]3(O)C(O)=C1C2=O [Minocycline, [4S-(4a,4aa,5aa,12aa)-4,7-bis(dimethylamino)-1,4,4a,5,5a,6,11,12a-octahydro-3,10,12,12a-tetrahydroxy-1,11-dioxo-2-naphthacenecarboxamide]monohydrochloride]
- MCP-1 ratio (CSF versus plasma) at terminal infection: below 2.65
